Results of unrelated studies side by side (data: NIAID ChemDB).

All rows: growth or infection tests; species: HIV-1; cells: MT-2; endpoint: EC50

ECn is the concentration giving n% inhibition of infection, replication or growth. An empty or dashed field is not shown. Rows are shuffled and stem from different studies.

smiles,strain or isolate,mutations,read by,conditions,result
C(=C1/CNC/C(=C\c2ccco2)C1=NNc1ccccc1)/c1ccco1,IIIB,-,p24 / ELISA,-,2.1 µM
S=C(NCCc1cccs1)Nc1ccc(Br)cn1,RT-V106A RT-MDR,-,p24,-,0.006 µM
CC(C)c1nc(CN(C)C(=O)N[C@H](C(=O)N[C@@H](Cc2ccccc2)C[C@H](O)[C@H](Cc2ccccc2)NC(=O)OCc2cncs2)C(C)C)cs1,MN,-,RT activity,-,0.005 µM
Nc1n[nH]c2ccc(CN3C(=O)N(Cc4ccc5[nH]nc(N)c5c4)[C@H](Cc4ccccc4)[C@H](O)[C@@H](O)[C@H]3Cc3ccccc3)cc12,RF,-,hybridisation,-,<2.76 µM
CC[C@H](C)[C@H]1NC(=O)[C@@H](NC(=O)[C@@H](CC(C)C)N(C)S(=O)(=O)c2ccc(C)cc2)[C@@H](C)OC(=O)[C@H](Cc2ccc(OC)cc2)N(C)C(=O)[C@@H]2CCCN2C(=O)[C@H](CC(C)C)NC(=O)[C@H](C(C)C)OC(=O)C[C@@H]1O,NL4-3,Delta-env-VSV-Luc,luciferase,-,0.053 µM
CC(C)(C)OC(=O)N[C@@H](Cc1ccccc1)[C@H](O)CNC[C@@H](O)[C@H](Cc1ccc(OCC(=O)N2CCOCC2)cc1)NC(=O)OC(C)(C)C,RF,-,p24,-,0.03 µM
CC[C@H](C)[C@H]1NC(=O)[C@@H](NC(=O)[C@H](CC(C)C)N(C)C(=O)[C@@H]2CCCN2C(=O)C(C)=O)[C@@H](C)OC(=O)[C@H](Cc2ccc(OC)cc2)N(C)C(=O)[C@@H]2CCCN2C(=O)[C@H](CC(C)C)NC(=O)[C@@H](C)C(=O)[C@H](C(C)C)OC(=O)C[C@@H]1O,NL4-3,-,luciferase,-,0.22 µM
COC(=O)N[C@H](C(=O)N[C@@H](Cc1ccccc1)[C@@H](O)CN(Cc1ccc(-c2ccccn2)cc1)NC(=O)[C@@H](NC(=O)OC)C(C)(C)C)C(C)(C)C,IIIB,M200I,p24 / ELISA,-,0.0008 µM
COC(=O)N[C@H](C(=O)N[C@@H](Cc1ccccc1)[C@@H](O)CN(Cc1ccc(-c2ccccn2)cc1)NC(=O)[C@@H](NC(=O)OC)C(C)(C)C)C(C)(C)C,BRU,-,-,-,0.00275 µM
Cc1cn([C@H]2C[C@H](N=[N+]=[N-])[C@@H](CO)O2)c(=O)[nH]c1=O,HXB2,-,p24 / ELISA,-,0.003 µM
Nc1nc2c(ncn2[C@H]2CO[C@@H](CO)O2)c(=O)[nH]1,LAI,RT-K65R,p24,-,2.41 µM
CCCNc1n[nH]c2ccc(CN3C(=O)N(Cc4ccc5[nH]nc(NCCC)c5c4)[C@H](Cc4ccccc4)[C@H](O)[C@@H](O)[C@H]3Cc3ccccc3)cc12,RF,-,hybridisation,-,<0.04 µM
O=c1[nH]cnc2c1ncn2[C@H]1CC[C@@H](CO)O1,HxB2-MT 65 (RT-K65R,RT-K65R,p24 / ELISA,-,4.3 µM
Cc1cn([C@H]2CC(N=[N+]=[N-])[C@@H](OCP(=O)(O)O)O2)c(=O)[nH]c1=O,IIIB,-,cytopathic effect / XTT,-,>200 µM
Nc1ncnc2c1ncn2CCOCP(=O)(O)O,LAI,RT-K65R,p24,-,>60 µM
CCCCC#CCSc1ccccc1OC(C)=O,HXB2 WT,-,cytopathic effect / MTT,-,10 µM
CCNc1n[nH]c2ccc(CN3C(=O)N(Cc4ccc5[nH]nc(NCC)c5c4)[C@H](Cc4ccccc4)[C@H](O)[C@@H](O)[C@H]3Cc3ccccc3)cc12,RF,-,hybridisation,-,<0.065 µM
C[C@H](Cn1cnc2c(N)ncnc21)OCP(=O)(O)O,IIIB,-,XTT / p24,7 d,0.63 µM
CC[C@H](C)[C@H]1NC(=O)[C@@H](NC(=O)[C@@H](C)N(C)C(=O)OCc2ccccc2)[C@@H](C)OC(=O)[C@H](Cc2ccc(OC)cc2)N(C)C(=O)[C@@H]2CCCN2C(=O)[C@H](CC(C)C)NC(=O)[C@@H](C)C(=O)[C@H](C(C)C)OC(=O)C[C@@H]1O,NL4-3,-,luciferase,-,0.23 µM
COCCNC(=O)[C@@H](NC(=O)[C@H](Cc1ccc(OC)c(OC)c1OC)C[C@H](O)[C@H](Cc1ccccc1)NC(=O)OC(C)(C)C)C(C)C,MN,-,RT activity,-,0.0017 µM
Cc1ccc(S(=O)(=O)N(CC(C)C)C[C@@H](O)[C@H](Cc2ccccc2)NC(=O)O[C@H]2CO[C@H]3OCC[C@H]32)cc1,IIIB,8374-P36 GS-8374-resistant,ATP,-,0.0095 µM
Cc1cn([C@H]2C=C[C@@H](OCP(=O)(O)O)O2)c(=O)[nH]c1=O,IIIB,-,XTT,-,26 µM
CC[C@H](C)[C@H]1NC(=O)[C@@H](NC(=O)[C@@H](C)N(C)C(=O)[C@@H]2CCCN2C(=O)C(C)=O)[C@@H](C)OC(=O)[C@H](Cc2ccc(OC)cc2)N(C)C(=O)[C@@H]2CCCN2C(=O)[C@H](CC(C)C)NC(=O)[C@@H](C)C(=O)[C@H](C(C)C)OC(=O)C[C@@H]1O,NL4-3,-,luciferase,-,0.3 µM
Nc1nc(N)c2ncn([C@H]3CO[C@@H](CO)O3)c2n1,-,RT-K65R Q151M,cytopathic effect / XTT,-,200 µM
Cc1cn([C@H]2C[C@H](N=[N+]=[N-])[C@@H](CO)O2)c(=O)[nH]c1=O,LAI,RT-L74V,p24,-,0.006 µM
O=C(O)P(=O)(O)O,LAI-VIRAL CLONE,-,cytopathic effect / MTT,-,28 µM
Nc1nc2c(ncn2[C@H]2CO[C@@H](CO)O2)c(=O)[nH]1,-,RT-K65R,cytopathic effect / XTT,-,12 µM
CC(C)(C)OC(=O)N[C@@H](Cc1ccccc1)[C@H](O)CNC[C@@H](O)[C@H](Cc1ccc(OCC(=O)N2CCOCC2)cc1)NC(=O)OC(C)(C)C,NL4-3,PR-A71T V82A,p24,-,0.26 µM
Cc1cn([C@H]2C=C[C@@H](CO)O2)c(=O)[nH]c1=O,IIIB,-,XTT,-,4.8 µM
Nc1nc(NC2CC2)c2ncn([C@H]3C=C[C@@H](CO)C3)c2n1,LAI,-,cytopathic effect / XTT,-,2.5 µM
Nc1nc(=O)n([C@@H]2CC[C@H](CO)O2)cc1F,IIIB,-,cytopathic effect / MTT,-,0.45 µM
Cc1cn([C@H]2CC[C@@H](CO)O2)c(=O)[nH]c1=O,IIIB,-,cytopathic effect / XTT,-,>200 µM
Nc1nc(=O)n([C@@H]2CS[C@H](CO)O2)cc1F,IIIB,-,cytopathic effect / MTT,-,0.6 µM
CCOP(=O)(COc1ccc(C[C@H](NC(=O)O[C@H]2CO[C@H]3OCC[C@H]32)[C@H](O)CN(CC(C)C)S(=O)(=O)c2ccc(OC)cc2)cc1)OCC,IIIB,8374-P47 GS-8374-resistant,ATP,-,0.0488 µM
CC(C)Nc1n[nH]c2ccc(CN3C(=O)N(Cc4ccc5[nH]nc(NC(C)C)c5c4)[C@H](Cc4ccccc4)[C@H](O)[C@@H](O)[C@H]3Cc3ccccc3)cc12,RF,-,hybridisation,-,<0.024 µM

For reference, 4 entries again:

smiles	strain or isolate	mutations	read by	conditions	result
CCCCC#CCSc1ccccc1OC(C)=O	HXB2 WT	-	cytopathic effect / MTT	-	10 µM
CC[C@H](C)[C@H]1NC(=O)[C@@H](NC(=O)[C@@H](CC(C)C)N(C)S(=O)(=O)c2ccc(C)cc2)[C@@H](C)OC(=O)[C@H](Cc2ccc(OC)cc2)N(C)C(=O)[C@@H]2CCCN2C(=O)[C@H](CC(C)C)NC(=O)[C@H](C(C)C)OC(=O)C[C@@H]1O	NL4-3	Delta-env-VSV-Luc	luciferase	-	0.053 µM
S=C(NCCc1cccs1)Nc1ccc(Br)cn1	RT-V106A RT-MDR	-	p24	-	0.006 µM
COC(=O)N[C@H](C(=O)N[C@@H](Cc1ccccc1)[C@@H](O)CN(Cc1ccc(-c2ccccn2)cc1)NC(=O)[C@@H](NC(=O)OC)C(C)(C)C)C(C)(C)C	BRU	-	-	-	0.00275 µM